Assay results from patent publication US8524659B2 (National Taiwan University, priority 2011, dated 2013).
HELM strings list residues between dots; [ac] is acetyl, [am] amide, other brackets name non-standard units.

Assay: general procedure: Fmoc solid-phase peptide synthesis; Fmoc-PAL-PEG-PS; HBTU/HOBT
Conditions: whole synthesis; for final HPLC purity: analytical RP-HPLC

Substance | crude yield [%] | final HPLC purity [%] | crude yield (cleavage yield)
6-carboxyfluorescein-βAla-Tyr-Gly-Agb-Lys-Lys-Agb-Agb-Gln-Agb-Agb-Agb-NH2 | 46.5 | 96.1 | >99%
6-carboxyfluorescein-βAla-Tyr-Gly-Agh-Lys-Lys-Agh-Agh-Gln-Agh-Agh-Agh-NH2 | 52.0 | 98.6 | >99%
6-carboxyfluorescein-βAla-Tyr-Gly-Arg-Lys-Lys-Arg-Arg-Gln-Arg-Arg-Arg-NH2 | 48.3 | 99.2 | >99%
6CF-βAla-Tyr-Gly-Arg-Lys-Lys-Arg-Arg-Gln-Arg-Arg-Cit-NH2 | 68.0 | 96.4 | >99% yield
6CF-βAla-Tyr-Gly-Arg-Lys-Lys-Arg-Arg-Gln-Arg-Cit-Arg-NH2 | 64.2 | 96.4 | >99% yield
6CF-βAla-Tyr-Gly-Arg-Lys-Lys-Arg-Arg-Gln-Cit-Arg-Arg-NH2 | 57.5 | 95.9 | >99% yield
6CF-βAla-Tyr-Gly-Arg-Lys-Lys-Arg-Cit-Gln-Arg-Arg-Arg-NH2 | 46.6 | 97.3 | >99% yield
6CF-βAla-Tyr-Gly-Arg-Lys-Lys-Cit-Arg-Gln-Arg-Arg-Arg-NH2 | 53.4 | 95.5 | >99% yield
6CF-βAla-Tyr-Gly-Cit-Lys-Lys-Arg-Arg-Gln-Arg-Arg-Arg-NH2 | 30.5 | 97.5 | >99% yield
Ac-Tyr-Gly-Arg-Lys-Lys-Arg-Arg-Gln-Arg-Arg-Cit-NH2 | 65.3 | 97.8 | >99% yield
Ac-Tyr-Gly-Arg-Lys-Lys-Arg-Arg-Gln-Arg-Cit-Arg-NH2 | 64.2 | 96.2 | >99% yield
Ac-Tyr-Gly-Arg-Lys-Lys-Arg-Arg-Gln-Cit-Arg-Arg-NH2 | 65.6 | 97.1 | >99% yield
Ac-Tyr-Gly-Arg-Lys-Lys-Arg-Cit-Gln-Arg-Arg-Arg-NH2 | 64.3 | 97.3 | >99% yield
Ac-Tyr-Gly-Arg-Lys-Lys-Cit-Arg-Gln-Arg-Arg-Arg-NH2 | 61.7 | 98.2 | >99% yield
Ac-Tyr-Gly-Cit-Lys-Lys-Arg-Arg-Gln-Arg-Arg-Arg-NH2 | 50.6 | 98.0 | >99% yield
Fmoc-Tyr-Gly-Arg-Lys-Lys-Arg-Arg-Gln-Arg-Arg-Cit-NH2 | 75.5 |  | 
Fmoc-Tyr-Gly-Arg-Lys-Lys-Arg-Arg-Gln-Arg-Cit-Arg-NH2 | 64.9 |  | 
Fmoc-Tyr-Gly-Arg-Lys-Lys-Arg-Arg-Gln-Cit-Arg-Arg-NH2 | 63.0 |  | 
Fmoc-Tyr-Gly-Arg-Lys-Lys-Arg-Cit-Gln-Arg-Arg-Arg-NH2 | 65.7 |  | 
Fmoc-Tyr-Gly-Arg-Lys-Lys-Cit-Arg-Gln-Arg-Arg-Arg-NH2 | 62.6 |  | 
Fmoc-Tyr-Gly-Cit-Lys-Lys-Arg-Arg-Gln-Arg-Arg-Arg-NH2 | 51.1 |  | 
PEPTIDE1{[ac].Y.G.R.K.K.R.R.Q.R.R.R.[am]}$$$$V2.0 | 59.6 | 98.7 | >99%
PEPTIDE1{[ac].Y.G.[Agb].K.K.[Agb].[Agb].Q.[Agb].[Agb].[Agb].[am]}$$$$V2.0 | 53.6 | 99.0 | >99%
PEPTIDE1{[ac].Y.G.[Agh].K.K.[Agh].[Agh].Q.[Agh].[Agh].[Agh].[am]}$$$$V2.0 | 66.6 | 98.5 | >99%
